PubChem BioAssay AID1259414, Drosophila RNAi Screening Center, 2018
The deposit covers about 24,000 reagents; shown is a random part of those with a known target gene and a result. In the full data, about 1,210 (5%) got an active call. 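Inactive calls also include excluded dsRNAs with several or no targets, genes unexpressed in JW18, and well A1, regardless of score.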 Reagents against one gene are numbered here. Names joined by + are all predicted targets of the reagent. Reagent sequences are not shown.

Assay: 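Host factors increasing or decreasing Wolbachia levels in cultured fly cells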 (primary screen)
System: Drosophila JW18 cells infected with Wolbachia
Reagents: long dsRNA against Drosophila genes, 0.25 µg dsRNA per well of a 384-well plate
Timing: 5 days
Treatment: cells persistently infected with Wolbachia before knock-down; no added drug
Detection: 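Automated imaging of bacterial rRNA staining divided by host cell count, reported as plate-normalised robust z-score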
Reading the numbers: Wolbachia per cell robust z: higher = more Wolbachia per host cell than the plate typical
Rule for the call: 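Active if absolute robust z reaches 1.5 in two or more of three replicates, leaving out multi- or no-target dsRNAs, genes unexpressed in JW18 and A1 wells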

no.	target gene	reagent	Wolbachia per cell robust z, rep 1	Wolbachia per cell robust z, rep 2	Wolbachia per cell robust z, rep 3	call
1	CG5623 (GeneID 41904)	1	-5.41	-0.097	-0.0134	inactive
2	Mcad (GeneID 38864)	1	-0.96	0.451	-1.33	inactive
3	Mcad (GeneID 38864)	2	0.487	-1.33	-0.158	inactive
4	5-HT1B (GeneID 37191)	1	0.976	-2.21	1.83	inactive
5	5-HT1B (GeneID 37191)	2	1.04	2.84	4.8	inactive
6	5-HT1B (GeneID 37191)	3	-0.524	-0.484	-0.255	inactive
7	CG31360 (GeneID 318698)	1	-0.702	-0.671	-0.06	inactive
8	CG7879 (GeneID 38184)	1	-0.149	-1.81	0.0633	inactive
9	CG7879 (GeneID 38184)	2	0.0377	0.198	0.728	inactive
10	PsGEF (GeneID 31224)	1	-1.52	-0.456	0.108	inactive
11	PsGEF (GeneID 31224)	2	-0.188	-0.561	-1.41	inactive
12	PsGEF (GeneID 31224)	3	-0.419	-0.771	0.0156	inactive
13	CG5773 (GeneID 37053)	1	-2.61	1.01	0.72	inactive
14	CG5773 (GeneID 37053)	2	0.289	-0.614	0.0218	inactive
15	neur + asRNA:CR31429	1	-0.39	-1.36	-2.12	inactive
16	neur + asRNA:CR31429	2	-2.69	0.978	0.351	inactive
17	tomboy40 (GeneID 35553)	1	0.663	-1.35	0.493	inactive
18	tomboy40 (GeneID 35553)	2	-1.12	-0.985	0.327	inactive
19	CG9154 (GeneID 33858)	1	-0.312	-1.21	-0.268	inactive
20	CG6974 (GeneID 41815)	1	0.593	-0.755	-1.39	inactive
21	CG30122 (GeneID 37146)	1	0.945	0.988	-0.0489	inactive
22	CG13653 (GeneID 43025)	1	0.163	0.682	-1.98	inactive
23	ND-24 (GeneID 32740)	1	-1.17	0.0213	0.015	inactive
24	CG17896 (GeneID 30995)	1	-2.93	-0.201	-0.148	inactive
25	CG17896 (GeneID 30995)	2	0.524	0.994	1.5	inactive
26	CG6739 (GeneID 34037)	1	-1.83	-0.0785	0.288	inactive
27	SerT (GeneID 37895)	1	-1.92	-1.03	-0.691	inactive
28	SerT (GeneID 37895)	2	0.972	-0.332	0.109	inactive
29	Isha (GeneID 37411)	1	1.09	1.71	1.49	inactive
30	Taf10 (GeneID 33469)	1	0.935	2.35	0.84	inactive
31	pie (GeneID 44315)	1	0.323	-0.823	-0.0181	inactive
32	Pgant4 (GeneID 261610)	1	-4.39	0.067	-0.186	inactive
33	Pgant4 (GeneID 261610)	2	0.205	-0.534	0.481	inactive
34	uno (GeneID 35778)	1	0.808	1.47	0.783	inactive
35	uno (GeneID 35778)	2	-0.423	-0.293	0.311	inactive
36	Acer (GeneID 34189)	1	0.968	-0.798	0.108	inactive
37	Hr78 (GeneID 40378)	1	0.672	1.58	-0.589	inactive
38	Hr78 (GeneID 40378)	2	0.692	-0.755	0.576	inactive
39	CG34367 (GeneID 5740879)	1	0.00387	0.287	0.98	inactive
40	CG34367 (GeneID 5740879)	2	0.503	-3.84	-0.0579	inactive
41	CG34367 (GeneID 5740879)	3	0.791	0.92	1.82	inactive
42	CG17508 (GeneID 49893)	1	-3.31	-1.21	-0.899	inactive
43	PCB (GeneID 36020)	1	0.304	-0.0668	1.14	inactive
44	Ir31a (GeneID 318912)	1	0.901	-1.14	-0.466	inactive
45	sand (GeneID 35777)	1	-1.69	-0.0153	0.236	inactive
46	CG32061 (GeneID 39196)	1	-0.627	-0.09	0.526	inactive
